Results of unrelated studies side by side (data: NIAID ChemDB).

All rows: whole-cell or culture tests; organism: Hepatitis C virus; method: replicon; endpoint: EC50

a–b is a range or a potency band.

SMILES	cell line	strain or isolate	value
CCOC(=O)[C@@]12C[C@H]1/C=C\CCCCC[C@H](CC(=O)N1CCCCC1)C(=O)N1C[C@H](Oc3cc(-c4ccccc4)nc4cc(OC)ccc34)C[C@H]1C(=O)N2			>10 µM
CC1CCC(C(=O)N(c2cc(-c3ccc(NC(=O)c4ccco4)cc3)sc2C(=O)O)C(C)C)CC1		1a	<0.5 µM
O=C1Cn2c(c(C3CCCCC3)c3ccc(C(=O)NC4(C(=O)Nc5nccs5)CCCC4)cc32)-c2ccccc2N1	Huh7		0.01–1 µM
O=C(O)c1c(-c2cccc(O)c2F)c2c3occc3c(F)cc2n1Cc1ccccc1F			0.5–1.5 µM
O=C(O)/C=C/c1ccc(NC(=O)C2(NC(=O)c3ccc4c(C5CCCCC5)c5n(c4c3)C[C@@H](O)[C@@H](O)c3ccccc3-5)CCCC2)cc1	Huh7		0.01–1 µM
CN1CCN(c2cc3c(cc2F)c(=O)c(-c2noc(CC4CC4)n2)cn3CC2CCCCC2)CC1		1b	<10 µM
COc1ccc2c(c1)C=C(C(=O)N1CCOCC1)Cn1c-2c(C2CCCCC2)c2ccc(C(=O)NS(=O)(=O)N(C)C)cc21	Huh7		0.01–1 µM
CN1CCN(c2cc3c(cc2F)c(=O)c(-c2noc(CN4CCCCC4)n2)cn3Cc2ccc(Cl)cc2)CC1		1b	<10 µM
O=C(O)c1c(-c2ccc[nH]c2=O)c2c3scnc3ccc2n1Cc1ccc(F)cc1F			>1.5 µM
O=C1Cn2c(c(C3CCCCC3)c3ccc(C(=O)NS(=O)(=O)N4CCN(c5ccccc5)CC4)cc32)-c2ccccc2N1	Huh7		1–10 µM
C=CC1CC1(NC(=O)[C@@H]1C[C@@H](Oc2cc(-c3ccccc3)nc3cc(OC)ccc23)CN1C(=O)[C@@H](CC(=O)N1CCCC1)C(C)(C)C)C(=O)OCC			>10 µM
CS(=O)(=O)NC(=O)c1c(-c2ccc[nH]c2=O)c2c3ccccc3ccc2n1Cc1cccc(C(=O)O)c1			>10 µM
C=CC1CC1(NC(=O)[C@@H]1C[C@@H](Oc2cc(-c3ccccc3)nc3cc(OC)ccc23)CN1C(=O)[C@@H](CC(=O)N1CCCCC1)C(C)(C)C)C(=O)O			>10 µM
O=c1c(-c2noc(Cc3ccccc3)n2)cn(Cc2ccc(Cl)cc2)c2cc(N3CCNCC3)c(F)cc12		1b	>10 µM
O=C(O)c1c(-c2ccc[nH]c2=O)c2c3occ(Cl)c3ccc2n1Cc1ccccc1F			<0.5 µM
CC(C)(c1ccccc1)c1nc(-c2cn(Cc3ccc(C(F)(F)F)cc3)c3cc(N4CCS(=O)(=O)CC4)c(F)cc3c2=O)no1		1b	<0.5 µM
CC1CCC(C(=O)N(c2cc(-c3ccc(NC(=O)c4ccco4)s3)sc2C(=O)O)C(C)C)CC1		1a	>0.5 µM
Nc1n[nH]c2cc(F)c(Cn3c(C(=O)O)c(-c4ccc[nH]c4=O)c4c5occc5c(F)cc43)cc12			<0.5 µM
CN(C)S(=O)(=O)NC(=O)c1ccc2c(C3CCCCC3)c3n(c2c1)CC(C(=O)N1CCOCC1)=Cc1ccccc1-3	Huh7		0.01–1 µM
CC1CCC(C(=O)N(c2cc(-c3ccc(NC(=O)c4cscn4)cc3)sc2C(=O)[O-])C(C)C)CC1.[NH4+]		1a	<0.5 µM
CC(C)S(=O)(=O)NC(=O)c1c(-c2ccc[nH]c2=O)c2c3occc3c(F)cc2n1Cc1ccccc1F			<0.5 µM
CN1CCN(c2cc3c(cc2F)c(=O)c(-c2noc(Cc4ccccc4)n2)cn3Cc2ccc(Cl)cc2)CC1		1b	<2 µM
Nc1ccccc1S(=O)(=O)NC(=O)c1c(-c2ccc[nH]c2=O)c2c3occc3c(F)cc2n1Cc1cc2ccccc2nc1Cl			<0.5 µM
CC1CCC(C(=O)N(c2cc(-c3ccc(NC(=O)c4cscn4)s3)sc2C(=O)O)C(C)C)CC1		1b	<0.5 µM
O=C(c1ccc2c(C3CCCCC3)c3n(c2c1)CC(C(=O)N1CCOCC1)Cc1ccccc1-3)N1CCOCC1	Huh7		0.01–1 µM
CN1CCN(c2cc3c(cc2F)c(=O)c(-c2noc(Cc4ccc(F)cc4)n2)cn3Cc2ccc(Cl)nc2)CC1		1b	<10 µM
CS(=O)(=O)NC(=O)c1c(-c2ccc[nH]c2=O)c2c3occc3cc(F)c2n1Cc1cc(F)ccc1F			0.5–1.5 µM
CC1CCC(C(=O)N(c2cc(-c3ccc(NC(=O)c4cccnn4)cc3)sc2C(=O)O)C2CCC2)CC1		1a	<0.5 µM
COc1ccc2c(O[C@@H]3C[C@H]4C(=O)N[C@]5(C(=O)NS(=O)(=O)C6CC6)C[C@H]5/C=C\CCCCC[C@H](CC(=O)N5CCCCC5)C(=O)N4C3)cc(-c3ccccc3)nc2c1			<100 µM
c1cnc2c(c1)-c1c(C3CCCCC3)c3ccc(-c4nn[nH]n4)cc3n1CCC2	Huh7		1–10 µM
C=CC1CC1(NC(=O)[C@@H]1C[C@@H](Oc2cc(-c3ccccc3)nc3cc(OC)ccc23)CN1C(=O)[C@@H](CC(=O)N1CCCCC1)C(C)(C)C)C(=O)NS(=O)(=O)C1CC1			1–10 µM
CC1CCC(C(=O)N(c2cc(-c3ccc(NC(=O)c4cccc(F)c4)cc3)sc2C(=O)O)C(C)C)CC1		1a	<0.5 µM
COc1ccc2c(O[C@@H]3C[C@H]4C(=O)NC5(C(=O)O)CC5/C=C\CCCCC[C@@H](CC(=O)N5CCCCC5)C(=O)N4C3)cc(-c3ccccc3)nc2c1			<100 µM
NC(=O)c1cnc(F)c(Cn2c(C(=O)NS(=O)(=O)C3CC3)c(-c3ccc[nH]c3=O)c3c4occc4c(F)cc32)c1			<0.5 µM
COc1ccc2c(c1)c(=O)c(-c1noc(Cc3ccccc3)n1)cn2Cc1ccc(Cl)cc1		1b	>10 µM
CC1CCC(C(=O)N(c2cc(-c3ccc(NC(=O)c4cscn4)cn3)sc2C(=O)O)C(C)C)CC1		1a	>0.5 µM
CN1CCN(c2cc3c(cc2F)c(=O)c(-c2noc(C(C)(C)c4ccccc4)n2)cn3Cc2ccc(Cl)nc2)CC1		1b	>10 µM
CC1CCC(C(=O)N(c2cc(-c3ccc(NC(=O)c4cscn4)c(C(F)(F)F)c3)sc2C(=O)O)C(C)C)CC1		1a	<0.5 µM
C=CC1CC1(NC(=O)[C@@H]1C[C@@H](Oc2cc(-c3ccccc3)nc3cc(OC)ccc23)CN1C(=O)[C@@H](CC(=O)N1CCC(CNC(=O)OC(C)(C)C)CC1)C(C)(C)C)C(=O)O			1–10 µM
CC1CCC(C(=O)N(c2cc(-c3ccc(NC(=O)c4cscn4)cc3)sc2C(=O)O)C2COCOC2)CC1		1b	<0.5 µM
C=CC1CC1(NC(=O)[C@@H]1C[C@@H](Oc2cc(-c3ccccc3)nc3cc(OC)ccc23)CN1C(=O)[C@@H](CC(=O)N1CCc2ccccc2C1)C(C)(C)C)C(=O)O			<100 µM

An empty or dashed field is not shown. ECn is the concentration giving n% inhibition of infection, replication or growth. Lines come from different laboratories, so protocols vary.